Data published in PubChem BioAssay AID504621 (Broad Institute, 2011).
The entries are a selection whose mix differs from that of the whole data set. Some salts or complexes appear as unconnected parts, following the source record. The source made the active and inactive calls.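 How the source made its calls: active means every replicate shows inhibition above about 80%, whatever the replicate mean (limit read from the data); inconclusive means mean inhibition reaches the set limit but some replicate falls short; inactive means the rest.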

experiment: growth inhibition of PfHsp90-expressing yeast, primary screen, antimalarial PfHsp90 inhibitor project, S. cerevisiae, BacTiter-Glo luminescence, single point, set 2 (AID 504621); conditions: BacTiter-Glo ATP, 48 h, at 9.4 µM, active compounds read high, yeast lacking PDR1 and PDR3 efflux regulators;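 further: yeast relying on Plasmodium falciparum Hsp90 in place of its own; 0% = DMSO neutral controls and 100% = 20 µM radicicol positive controls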

| Structure (SMILES) | inhibition |
| --- | --- |
| CP(=O)(Nc1ccc(Cl)cc1)Oc1ccc(F)cc1 (configuration not stated) | inactive: -14.9% |
| COc1ccccc1OP(C)(=O)Nc1ccccc1Br (configuration not stated) | inactive: -5.98% |
| CC(C)(C)c1ccc(OP(C)(=O)O)cc1 | inactive: 6.77% |
| CN(C)C(=O)c1c([N+](=O)[O-])cc([N+](=O)[O-])cc1[N+](=O)[O-] | inactive: -17.9% |
| CCN(CC)CC(O)COC(=O)C(O)(c1ccccc1)C1CCCCC1 (configuration not stated) | inactive: -3.79% |
| CCc1ccc(OP(C)(=O)Nc2cccnc2)cc1 (configuration not stated) | inactive: 2.1% |
| CP(=O)(Oc1ccccc1)N1CCOC1=O (configuration not stated) | inactive: 9.14% |
| O=C(OCCCN1CCCC1)C(O)(c1ccccc1)C1CCCCC1 (configuration not stated) | inactive: 6.93% |
| COc1ccccc1OP(C)(=O)Nc1c(C)n(C)n(-c2ccccc2)c1=O (configuration not stated) | inactive: -4.41% |
| CP(=O)(OC12CC3CC(CC(C3)C1)C2)OC12CC3CC(CC(C3)C1)C2 | inactive: -12.3% |
| CCOC(=O)c1ccc(NP(C)(=O)Oc2ccc(Cl)cc2)cc1 (configuration not stated) | inactive: -56.6% |
| CCCCCCCCCCCCCCCC1C[N+](C)(C)CCOP(C)(=O)O1 (configuration not stated) | inactive: 18.5% |
| CP(=O)(Nc1ccc(Cl)cc1Cl)Oc1ccccc1 (configuration not stated) | inactive: -6.7% |
| CP(=O)(OCCOc1ccccc1)OCCOc1ccccc1 | inactive: 21.8% |
| Cc1cc(C)cc(OP(C)(=O)Nc2cccc(C(F)(F)F)c2)c1 (configuration not stated) | inactive: 0.332% |
| O=C1C(O)=C([N+](=O)[O-])C(=O)C(O)=C1[N+](=O)[O-] | inactive: -2.69% |
| COc1ccc(OP(C)(=O)Nc2ccccc2Br)cc1 (configuration not stated) | inactive: 13.8% |
| COc1ccccc1OP(C)(=O)Nc1ccc(C)c(C)c1 (configuration not stated) | inactive: 0.288% |
| Cc1c(NP(C)(=O)Oc2ccc(C(C)C)cc2)c(=O)n(-c2ccccc2)n1C (configuration not stated) | inactive: 13.2% |
| O=[N+]([O-])c1cc([N+](=O)[O-])c(Nc2ccccn2)c([N+](=O)[O-])c1 | inactive: -1.85% |
| CCc1ccc(OP(C)(=O)O)cc1 | inactive: 9.63% |

| Structure (SMILES) | inhibition |
| --- | --- |
| CP(=O)(Nc1ccccn1)Oc1ccccc1 (configuration not stated) | inactive: 9.58% |
| COc1ccccc1OP(C)(=O)Nc1ccc(Br)cc1 (configuration not stated) | inactive: 7.94% |
| CN(C)CCOC(=O)C(O)(c1ccccc1)C1CCCC1 (configuration not stated) | inactive: 3.86% |
| COc1ccc(OP(C)(=O)Nc2ccccn2)cc1 (configuration not stated) | inactive: -8.01% |
| O=C(OCCN1CCN(CCOCc2ccccc2)CC1)C(O)(c1ccccc1)c1ccccc1 | inactive: 1.09% |
| O=C(OC1CN2CCC1CC2)c1ccc([N+](=O)[O-])cc1 (configuration not stated) | inactive: 9.96% |
| COc1ccc2c(c1O)-c1c(O)c(OC)cc3c1[C@H](C2)[N+](C)(C)CC3.O=[N+]([O-])c1cc([N+](=O)[O-])c([O-])c([N+](=O)[O-])c1[O-] | inactive: 1.27% |
| CC(C)c1ccc(OP(C)(=O)Nc2ccc(SC(F)(F)F)cc2)cc1 (configuration not stated) | inactive: 15.7% |
| CCN(CC)CCCOC(=O)C(O)(c1ccccc1)C1CCCCC1 (configuration not stated) | inactive: 20.7% |
| Cc1c([N+](=O)[O-])cc([N+](=O)[O-])c(Br)c1[N+](=O)[O-] | inactive: -9.9% |
| CCCCCOc1ccc(NP(C)(=O)Oc2ccc(Cl)cc2Cl)cc1 (configuration not stated) | inactive: -6.43% |
| O=[N+]([O-])c1cc([N+](=O)[O-])c(OC2CCCCC2O)c([N+](=O)[O-])c1 (configuration not stated) | inactive: 22.4% |
| CP(=O)(Nc1ccccc1)Oc1ccc(F)cc1 (configuration not stated) | inactive: 13.1% |
| COc1ccc(OP(C)(=O)Nc2ccc(SC(F)(F)F)cc2)cc1 (configuration not stated) | inactive: -2.57% |
| CCOC(=O)c1ccc(NP(C)(=O)Oc2ccc(F)cc2)cc1 (configuration not stated) | inactive: -14.6% |
| Cc1cc(-c2cccc3ccccc23)c(C)cn1.O=[N+]([O-])c1cc([N+](=O)[O-])c(O)c([N+](=O)[O-])c1 | inactive: 21% |
| O=[N+]([O-])c1cc([N+](=O)[O-])c(NCC2CCS(=O)(=O)C2)c([N+](=O)[O-])c1 (configuration not stated) | inactive: -18.3% |
| O=[N+]([O-])c1ccc(OP2(=O)COCCO2)cc1 (configuration not stated) | inactive: 3.85% |
| Cc1c(C(c2ccc3c(c2)OCO3)c2c(C)n(C)n(-c3ccccc3)c2=O)c(=O)n(-c2ccccc2)n1C.O=[N+]([O-])c1cc([N+](=O)[O-])c(O)c([N+](=O)[O-])c1 | inactive: -4.61% |
| COc1ccc(NP(C)(=O)Oc2ccccc2OC)cc1 (configuration not stated) | inactive: -17.2% |
| CN(C)CCOC(=O)C(O)(c1ccccc1)C1CCCCC1 (configuration not stated) | inactive: 0.74% |

| Structure (SMILES) | inhibition |
| --- | --- |
| CP(=O)(Nc1ccc2c(c1)OCCO2)Oc1ccccc1 (configuration not stated) | inactive: 11.3% |
| Cc1ccccc1NP(C)(=O)Nc1ccccc1C | inactive: -20.6% |
| CP(=O)(Nc1ccc(SC(F)(F)F)cc1)Oc1ccc(F)cc1 (configuration not stated) | inactive: -4.11% |
| CCOP(C)(=S)SCC(=O)NC(C)(CC)C(=O)O (configuration not stated) | inactive: 3.78% |
| O=[N+]([O-])c1cc([N+](=O)[O-])c(-c2cnn(-c3ccccc3)c2)c([N+](=O)[O-])c1 | active: 107% |
| Cc1nc2ccc3ccccc3c2s1.O=[N+]([O-])c1cc([N+](=O)[O-])c(O)c([N+](=O)[O-])c1 | inactive: -18.5% |
| O=[N+]([O-])c1cc([N+](=O)[O-])c(-n2nnc3ccccc32)c([N+](=O)[O-])c1 | inactive: -5.58% |
| CN1CCCCC1COC(=O)C1(O)c2ccccc2CCc2ccccc21 (configuration not stated) | inactive: -7.69% |
| CCCOc1ccc(NP(C)(=O)Oc2ccc(Cl)cc2)cc1 (configuration not stated) | inactive: -14.6% |
| CP(=O)(Nc1ccc(SC(F)(F)F)cc1)Oc1ccccc1 (configuration not stated) | inactive: 15.6% |
| CCOC(=O)C(CC)C1=NC(C)(C)Cc2ccccc21.O=[N+]([O-])c1cc([N+](=O)[O-])c(O)c([N+](=O)[O-])c1 (configuration not stated) | inactive: -11.9% |
| CC1=C2N=C(C=C3N=C(C(C)=C4[N-][C@@](C)([C@@H]5N=C1[C@](C)(CCC(=O)NC[C@@H](C)OP(=O)([O-])O[C@H]1[C@@H](O)[C@@H](n6cnc7cc(C)c(C)cc76)O[C@@H]1CO)[C@H]5CC(N)=O)[C@@](C)(CC(N)=O)[C@@H]4CCC(N)=O)[C@@](C)(CC(N)=O)[C@@H]3CCC(N)=O)C(C)(C)[C@@H]2CCC(N)=O.[C-]#N.[Co+3] | inactive: 13.6% |
| O=[N+]([O-])c1cc([N+](=O)[O-])c(Nc2nnnn2CCO)c([N+](=O)[O-])c1 | inactive: 7.12% |
| CC1=NCCc2c1[nH]c1ccccc21.O=[N+]([O-])c1cc([N+](=O)[O-])c(O)c([N+](=O)[O-])c1 | inactive: 14.5% |
| O=C(O)c1cccc(Nc2c([N+](=O)[O-])cc([N+](=O)[O-])cc2[N+](=O)[O-])c1 | inactive: -1.57% |
| Cc1cc(C)cc(OP(C)(=O)Nc2ccccn2)c1 (configuration not stated) | inactive: -10.8% |
| CP(=O)(Nc1cccc(Br)c1)Oc1ccccc1 (configuration not stated) | inactive: -14.2% |
| Cc1ccc(C)c(NP(C)(=O)Oc2ccccc2)c1 (configuration not stated) | inactive: -24.7% |
| COc1ccccc1OP(C)(=O)Nc1cccc(Br)c1 (configuration not stated) | inactive: 34.9% |
| Cc1cc(C)cc(OP(C)(=O)Nc2ccc(C)cc2C)c1 (configuration not stated) | inactive: -15.8% |
| CCOC(=O)c1ccc(NP(C)(=O)Oc2cc(C)cc(C)c2)cc1 (configuration not stated) | inactive: 12.7% |

| Structure (SMILES) | inhibition |
| --- | --- |
| CCN(CC)CCCOC(=O)C(O)(c1ccccc1)c1ccccc1 | inactive: -2.47% |
| CCOC(=O)c1ccc(NP(C)(=O)Oc2ccccc2)cc1 (configuration not stated) | inactive: 1.08% |
| Cc1ccc(NP(C)(=O)Oc2ccccc2)c(C)c1 (configuration not stated) | inactive: 4.78% |
| COc1ccccc1OP(C)(=O)Nc1ccc(C)cc1 (configuration not stated) | inactive: 3.47% |
| COc1ccccc1OP(C)(=O)Nc1cc(Cl)ccc1C (configuration not stated) | inactive: -39.7% |
| Cc1cc(C)cc(OP(C)(N)=O)c1 (configuration not stated) | inactive: -8.84% |
| O=[N+]([O-])c1cc([N+](=O)[O-])c(Nc2cccnc2)c([N+](=O)[O-])c1 | inactive: -6.1% |
| Cc1cccc(C)c1OP(C)(N)=O (configuration not stated) | inactive: 22.6% |
| CC(C)(C)c1ccc(OP(C)(=O)Nc2ccc(SC(F)(F)F)cc2)cc1 (configuration not stated) | inactive: -18.8% |
| O=[N+]([O-])c1ccc2c(c1)C=Nc1ccccc1O2 | inactive: -8.37% |
| CP(=S)(Nn1cnnc1)Oc1ccccc1 (configuration not stated) | inactive: -0.558% |
| COc1ccccc1OP(C)(=O)Nc1ccccc1 (configuration not stated) | inactive: 19.5% |
| CP(=O)(Nc1ccccc1Br)Oc1ccccc1 (configuration not stated) | inactive: -23.2% |
| CCOC(=O)c1ccc(NP(C)(=O)Oc2ccc(OC)cc2)cc1 (configuration not stated) | inactive: -58.4% |
| CP(=O)(Nc1ccccn1)Oc1ccc(Cl)cc1 (configuration not stated) | inactive: -8.53% |
| CP(=O)(Oc1ccccc1)OC(c1ccccc1)C(F)(F)F (configuration not stated) | inactive: 0.88% |
| Cc1cccc(C)c1OP(C)(=O)Nc1ccc(SC(F)(F)F)cc1 (configuration not stated) | inactive: 15.8% |
| CP(=O)(NC(=O)Nc1ccccc1)Oc1ccccc1 (configuration not stated) | inactive: 12.2% |
| CCc1ccc(OP(C)(=O)N2CCN(c3ccc([N+](=O)[O-])cc3)CC2)cc1 (configuration not stated) | inactive: -3.61% |
